Here are results for 2 sequences from PMC4726272.

This series has as its system OmpR-6His + RcsB-6His. Kind of series: EMSA. Conditions: both proteins together, 10 mM Tris pH 7.5, 50 mM NaCl, 0.5 mM DTT, 1 mM MgCl2, 2.5% glycerol, 20 min at room temperature, 50 ng DNA in 20 ul, 6% acrylamide-TBE gel, recombinant protein, protein details: His-tag (pET100/D-Topo),6xHis, label: none (ethidium bromide staining), probe letters rebuilt from the primers and the genome.

The exact form of at least one protein or probe is not confirmed. A negative result means that nothing was seen under these conditions.

With “AACTGACCAGCATGGGATTCTTCGCCACCAGTACTTTTTTTGTGTTATCCGGCTTTCTGCTGACGCACGTTTATCTGCGTGACGGCCAGTTGCGGGAACCCGCCCGACACTTTTTAGCCAAGCGGTTGTTTAACCTCTACCCGATTCATATCATCGGTCTGGTGTCATCCATCGTCGTGGTCAGCCTGATGCACTGGCTGGCGATTCCGCCGGAAGGTCAGGTCGCTAGCGCCCGCTTCGTGATTTACGACAGCAACGACCCCAGCGTCGCGCCGGAAACATTACGCCACTACATGGATAACGCTGAACTGGCTTTTAACGGCTTGTTGCAATTACTGATGTTGCAGGCGTGGAACCCCTACTTTCTGACCTTCAACGCGCCGTTGTGGTCGGTGTCGACATTGTTCTTCTTCTATTTGCTGTTCCCACTGCTGGCGCCGCGGCTGTTGGGCAGTCGTCACCCGCGCCTGTGGTTGATGGCGATGTTCGTGCTGTATTTACTGCCGCCGATATGGGTGATCTGGCATCAATTATATGGCGCGCCATACACCGGCCTGCTACAACGCAACCCC (double strand) [opgC mid-coding control fragment]”, the binding result is “no binding”.
For “CACATCTAGACGATGGTTATCTGCTCAAGGATATGGAACCGGAAGACCTGCTGGTGGCGCTGCATCAGGCCGCCGCCGGCAAAATGGTGCTCAGCGATGCCCTGACGCCGGTTCTGGCGGCCAGCCTGCGGGAAACGCGTAGCAGCGATACGCGGGATATCCAGCAACTGACCCCGCGGGAAAAAGATATCCTGAAGCTGATCGCCCAGGGTCTGCCCAACAAGGTCATCGCCCGTAAGCTGACGATTACCGAAAGCACGGTGAAAGTACACGTCAAACATCTGCTGAAAAAAATGAAATTGCGCTCCCGGGTGGAAGCCGCAGTCTGGGTGGTGCAAGAGAAGATTTTTTAACCGGCGGCGGCCGGACGCCGCCGGCCAGCACCGCCACGCCGATGTCGCTCTTACTTTTTGAGGCCAAAAATTACAGGAAAATACACCCACCTACACTTCTATACGTTTATTTGCGTTACGGCTGATAAAGTAACGCCCGTTCATGGTTTTTAGTACTTTATCGCCATTTTCCTAGATATTTCCCCATATTCCTTTCCTAGACTCACCTTGTTCGGCGTTTCATTGCGCTTTCGCCAGGCTTAACCGGAGGAAAAAGAGAATGAAAGTCAGAGAACGATATATTGGACTGGAATGGCTCCGGTTTCTGCTTGGATGAGCATGCTGTG (double strand) [opgC promoter region]”, the binding result (minimal amounts 100 ng OmpR and 200 ng RcsB in 20 ul) is recorded as “binds”.
